A mixed list of measured activities; the numbers were collected in NIAID ChemDB.

All rows: tests in culture; species: Human cytomegalovirus; method: plaque count; read-out: EC50

Lines come from different laboratories, so protocols vary.

compound,strain,cell line,result
Nc1nc(NC2CC2)c2ncn(C=C3CC3CO)c2n1,C8704/9-1-4,HFF,1.7 µM
CCCCCCCCCCCCCCCCCCOCCOP1(=O)CO[C@@H](Cn2ccc(N)nc2=O)CO1,AD169,MRC-5,0.0018 µM
Nc1ccn(C[C@@H](CO)OCP(=O)(O)O)c(=O)n1,AD169,MRC-5,0.04 µg/mL
O[C@@H]1[C@H](O)[C@H](O)CO[C@H]1n1c(Br)nc2cc(Cl)c(Cl)cc21,EC,HFF,3.8 µM
Nc1ccn(C[C@@H](CO)OCP(=O)(O)O)c(=O)n1,AD169,HEL,0.28 µM
OC[C@H]1O[C@@H](n2c(Br)nc3cc(Cl)c(Cl)cc32)[C@H](O)[C@@H]1O,C4 (D341E),-,33 µM
OC[C@H]1O[C@@H](n2c(Br)nc3cc(Cl)c(Cl)cc32)[C@H](O)[C@@H]1O,1117R (drug-resistant),HFF,2.8 µM
Nc1nc2c(ncn2C=C2CC2CO)c(=O)[nH]1,AD169,HFF,1.2 µM
Nc1ccn(C[C@H]2COP(=O)(O)CO2)c(=O)n1,759D100 drug-resistant mutant,MRC-5,2.5 µM
O=C(NCc1ccc(Cl)cc1)c1c[nH]c2c(F)cccc2c1=O,SAL,-,18 µM
O=C(O)P(=O)(O)O,Foscarnet-resistant,HEL,340.7 µM
Nc1nc2c(ncn2C[C@@H]2CC[C@@H](P(=O)(O)O)O2)c(=O)[nH]1,D-10 C4 (BDCRB-resistant),HFF,0.07 µg/mL
Nc1nc2c(ncn2COC(CO)CO)c(=O)[nH]1,VR6189 (ganciclovir-susceptible),-,1.8 µM
CCCCCCCCCCCCCCCCOCCCOP(=O)(O)CO[C@H](CO)Cn1ccc(N)nc1=O,Toledo,MRC-5,0.025 µM
Nc1nc2c(ncn2COC(CO)CO)c(=O)[nH]1,C9208/3-3-1,HFF,2.2 µM
COc1cccc(N2CCN(C3=Nc4c(F)cccc4[C@H](CC(=O)O)N3c3cc(C(F)(F)F)ccc3OC)CC2)c1,Clinical isolate 2,-,0.0015 µM
COC(=O)[C@H](C)NP(=O)(OC[C@H]1C/C1=C/n1cnc2c(OC)nc(N)nc21)Oc1ccccc1,AD169,HFF,4.5 µM

For reference, 2 entries again:

compound | strain | cell line | result
Nc1ccn(C[C@@H](CO)OCP(=O)(O)O)c(=O)n1 | AD169 | HEL | 0.28 µM
Nc1nc2c(ncn2COC(CO)CO)c(=O)[nH]1 | C9208/3-3-1 | HFF | 2.2 µM

An empty or dashed field is not shown. ECn: concentration that inhibits the pathogen or its effect by n%.